The Kd is the concentration at which binding is half-saturated.

Here are results for 49 substances from patent US20250325672A1 (priority 2020, published 2025).

The target of this test is Biotinylated 2019-nCoV (COVID-19) S1 protein (16-685), His, Avitag (Severe acute respiratory syndrome coronavirus 2, UniProt P0DTC2). Type of test: binding, SARS-COV-2. As to conditions: read-out: Geomean Average KD.
For A-(SEQ ID NO: 79)-A [BCY15446], the Kd amounted to 1060 nM.

As for A-(SEQ ID NO: 116)-A [BCY16207], the Kd worked out at 8300 nM.

For the substance A-(SEQ ID NO: 118)-A [BCY15444], the Kd came out at 2180 nM.

Turning to A-(SEQ ID NO: 119)-A [BCY16927], the Kd came out at 18.8 nM.

On to A-(SEQ ID NO: 120)-A [BCY16930], for which the Kd came out at 59.1 nM.

As to A-(SEQ ID NO: 121)-A [BCY16933], the Kd stood at 25.3 nM.

For A-(SEQ ID NO: 122)-A [BCY16940], the Kd turned out to be 207 nM.

With A-(SEQ ID NO: 123)-A [BCY15445], the Kd stood at 482 nM.

Turning to A-(SEQ ID NO: 124)-A [BCY16941], the Kd was determined as 83.9 nM.

With A-(SEQ ID NO: 125)-A [BCY16942], the Kd came to 92 nM.

With A-(SEQ ID NO: 126)-A [BCY16946], the Kd is 78.1 nM.

Take A-(SEQ ID NO: 127)-A [BCY16948]: the Kd is 9.79 nM.

For the substance A-(SEQ ID NO: 128)-A [BCY16886], the Kd came to 154 nM.

With A-(SEQ ID NO: 129)-A [BCY16887], the Kd was 95.3 nM.

With A-(SEQ ID NO: 130)-A [BCY16889], the Kd was found to be 44.8 nM.

Regarding A-(SEQ ID NO: 131)-A [BCY16895], the Kd stood at 43.7 nM.

For A-(SEQ ID NO: 132)-A [BCY17547], the Kd stood at 933 nM.

In the case of A-(SEQ ID NO: 133)-A [BCY17548], the Kd was found to be 1610 nM.

On to A-(SEQ ID NO: 134)-A [BCY17540], for which the Kd amounted to 1810 nM.

On to A-(SEQ ID NO: 135)-A [BCY17541], for which the Kd turned out to be 245 nM.

In the case of A-(SEQ ID NO: 136)-A [BCY17542], the Kd was determined as 574 nM.

In the case of A-(SEQ ID NO: 137)-A [BCY17543], the Kd was 178 nM.

For the substance A-(SEQ ID NO: 138)-A [BCY17544], the Kd amounted to 350 nM.

For the substance A-(SEQ ID NO: 166)-A [BCY17359], the Kd turned out to be 2250 nM.

As to Ac-(SEQ ID NO: 37) [BCY16926], the Kd came out at 2470 nM.

Take Ac-(SEQ ID NO: 79)-K [BCY18654]: the Kd was 1280 nM.

Turning to Ac-(SEQ ID NO: 80) [BCY18086], the Kd came out at 1710 nM.

Consider Ac-(SEQ ID NO: 112) [BCY16910], for which the Kd was 22.6 nM.

On to Ac-(SEQ ID NO: 116) [BCY18698], for which the Kd stood at 8900 nM.

As to Ac-(SEQ ID NO: 139) [BCY17279], the Kd turned out to be 55.2 nM.

As for Ac-(SEQ ID NO: 140) [BCY17281], the Kd came out at 105 nM.

As for Ac-(SEQ ID NO: 141) [BCY17282], the Kd is 99.5 nM.

As to Ac-(SEQ ID NO: 142) [BCY17283], the Kd was determined as 225 nM.

Take Ac-(SEQ ID NO: 143) [BCY17287]: the Kd is 1390 nM.

Regarding Ac-(SEQ ID NO: 144) [BCY17289], the Kd worked out at 44.1 nM.

As to Ac-(SEQ ID NO: 145) [BCY17294], the Kd was determined as 76.3 nM.

Ac-(SEQ ID NO: 146) [BCY17301]: the Kd came out at 77 nM.

Regarding Ac-(SEQ ID NO: 147) [BCY17302], the Kd was 187 nM.

Take Ac-(SEQ ID NO: 148) [BCY17303]: the Kd came out at 109 nM.

Consider Ac-(SEQ ID NO: 149) [BCY17304], for which the Kd was 122 nM.

Consider Ac-(SEQ ID NO: 150) [BCY17305], for which the Kd worked out at 67.3 nM.

Turning to Ac-(SEQ ID NO: 151) [BCY17306], the dissociation constant (Kd) was determined as 37.9 nM.

As to Ac-(SEQ ID NO: 152) [BCY17307], the Kd worked out at 73.3 nM.

With Ac-(SEQ ID NO: 153) [BCY17308], the Kd came to 127 nM.

Ac-(SEQ ID NO: 154) [BCY17309]: the Kd was 95.3 nM.

For the substance Ac-(SEQ ID NO: 155) [BCY17310], the Kd stood at 86.5 nM.

For Ac-(SEQ ID NO: 156) [BCY17311], the Kd came to 33.6 nM.

As to Ac-(SEQ ID NO: 157) [BCY17313], the Kd stood at 1350 nM.

As to Ac-(SEQ ID NO: 158) [BCY18340], the Kd stood at 20.4 nM.
